{
  "source": "paper PMC5017893",
  "biological_target": "recombinant MUC16 (aa21005-21992; R&D Systems)",
  "assay": "SPR",
  "data": [
    {"substance": "Fc fragment of VRC01 (domain or fragment)", "values": [
      {"measurement": "fold greater affinity than the F(ab)2 of VRC01", "result": 8, "unit": "fold"}
    ]}
  ]
}
